PubChem BioAssay AID504761 – Drosophila RNAi Screening Center | 2011

Test: 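Fly genes whose silencing reduces dengue virus type 2 infection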 (primary screen)
Cells: D.Mel-2 cells from Drosophila
Reagent: long dsRNA against Drosophila genes
Conditions: infection with dengue virus type 2; dose and infection time not stated
Detection: 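Per well on two replicate plates, imaging gave the percent of cells positive for viral envelope protein, ranked by infection, and a nuclear count of cells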
Reading the numbers: infection score: higher = more virus-infected cells; cell count: higher = more cells in the well
Hit rule: 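Very low infection ranking in both replicate wells (chance probability at most 0.065), then a retest showing infection dropped 1.5-fold or more at p below 0.05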
Calls: active = confirmed: knock-down lowers infection; inactive = not picked or not confirmed
The deposit covers about 22,000 reagents; below is a random part of those that have a named target and a result. In the full data, 116 (0.52%) are marked active. 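Calls depend on retest data that are not deposited; infection was ranked per plate without normalising between plates; the unit of the infection score is not given.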 Raw values are not corrected between plates. No sequences are given here. Not given: the amount of reagent, the time to read-out.

target gene,dsRNA,"infection score, replicate 1","infection score, replicate 2","cell count, replicate 1","cell count, replicate 2",Outcome
CG12209,DRSC06119,5.63,12.8,1865,5729,inactive
CG9004,DRSC08617,4.28,3.1,5212,4969,inactive
CG32021 (retired record),DRSC17206,10.9,8.72,6633,3897,inactive
CG32021 (retired record),DRSC23926,6.6,3.1,5684,5805,inactive
isoQC,DRSC11790,4.65,2.53,6427,6116,inactive
isoQC,DRSC28241,3.69,16,786,5825,inactive
beat-IIIa,DRSC01577,5.88,5.42,6312,6437,inactive
beat-IIIa,DRSC02178,1.35,3.26,6616,6541,inactive
Neurochondrin,DRSC12580,15.8,13.2,5128,5708,inactive
Neurochondrin,DRSC26704,3.29,6.32,6165,5804,inactive
Gclm,DRSC15677,1.9,8.13,6215,6670,inactive
Gclm,DRSC26358,13.8,5.11,5660,6667,inactive
CG1812,DRSC20557,5.34,1.45,6052,6417,inactive
CG1812,DRSC26769,8.32,4.17,6409,6663,inactive
MED31,DRSC23432,7.19,3.7,6396,6319,inactive
MSBP,DRSC20146,4.95,4.71,6198,7064,inactive
cag,DRSC07587,6.45,8.21,6422,6909,inactive
cag,DRSC29225,,2.3,372,784,inactive
CG32249,DRSC08101,6.03,9.34,6551,6234,inactive
CG32249,DRSC08177,2.79,3.46,6199,6106,inactive
CG32249,DRSC22444,3.01,1.08,5942,6964,inactive

Quoted from the listing for reference:
target gene,dsRNA,"infection score, replicate 1","infection score, replicate 2","cell count, replicate 1","cell count, replicate 2",Outcome
CG32021 (retired record),DRSC17206,10.9,8.72,6633,3897,inactive
CG32021 (retired record),DRSC23926,6.6,3.1,5684,5805,inactive
isoQC,DRSC11790,4.65,2.53,6427,6116,inactive
isoQC,DRSC28241,3.69,16,786,5825,inactive

Continued.
target gene,dsRNA,"infection score, replicate 1","infection score, replicate 2","cell count, replicate 1","cell count, replicate 2",Outcome
SdhB,DRSC05018,1.14,1.97,6059,6441,inactive
SdhB,DRSC21367,2.36,6.1,6007,6068,inactive
whd,DRSC07351,4.83,7.96,6019,6423,inactive
CG5217,DRSC15740,3.15,2.95,6676,6075,inactive
Or45b,DRSC07488,4.48,13.5,6628,6808,inactive
CG10600,DRSC02074,14,21.8,5965,5960,inactive
CG11842,DRSC14400,1.74,9.58,5513,6200,inactive
CG11842,DRSC24924,1.65,3.08,7045,6846,inactive
CG32631,DRSC19768,3.89,4.8,6293,6707,inactive
CG32631,DRSC28596,17.5,3.8,3862,1291,inactive
CG18682 (retired record),DRSC15373,1.23,2.84,1959,7085,inactive
CG18682 (retired record),DRSC15374,5.7,0.92,2035,6717,inactive
CG14647,DRSC12233,7.72,24.8,6631,5996,inactive
CG14647,DRSC22497,2.85,8.6,6095,6140,inactive
cmet,DRSC03511,,1.09,593,640,inactive
CG2187,DRSC15425,6.12,,6126,407,inactive
CG2187,DRSC25548,2.77,3.29,6322,6077,inactive
CG14050,DRSC18594,4.09,4.44,6013,6561,inactive
CG14218,DRSC19575,1.86,0.4,6603,5778,inactive
CG14218,DRSC25424,4.94,3.94,6214,6389,inactive
CG10352,DRSC19353,0.83,2.87,6303,6595,inactive
Sac1,DRSC08622,1.66,4.08,6981,6380,inactive
Sac1,DRSC26886,3.1,11.1,6313,6346,inactive
CG7968,DRSC01903,3.87,9.2,6052,5032,inactive
jb,DRSC20531,0.68,3.44,6027,6025,inactive
dpr1,DRSC06399,3.1,0.8,5974,6659,inactive
CG33308,DRSC01419,2.31,1.02,5448,5497,inactive
sprt,DRSC07323,30.6,5.57,5813,6628,inactive
CG31949,DRSC00110,4.12,2.02,5855,6371,inactive
Ugt37A3,DRSC15937,3.72,8.3,5997,6830,inactive
fmt,DRSC09717,5.9,4.35,6200,6488,inactive
CG17472,DRSC02622,4.79,17.6,6924,5792,inactive
CG18178,DRSC10302,2.59,3.92,6337,6741,inactive
SLC5A11,DRSC03088,4.87,4.12,6591,6136,inactive
CR31958,DRSC00282,2.37,1.15,6578,7124,inactive
CR31958,DRSC21858,6.55,2.86,6578,6829,inactive
CR31958,DRSC25319,6.1,8.53,6410,6363,inactive
